Anti-infective test results gathered from many reports (values: NIAID ChemDB through PubChem).

All rows: enzyme or target tests; organism: HIV-1; target: Reverse transcriptase; read-out: IC50

Blank or dashed fields: not listed here.

SMILES	strain or isolate	mutations	method	value
Cc1c(Cc2c(Cl)cccc2Cl)nc(Sc2ccc(C#N)cc2)[nH]c1=O		Y181I		>400 µM
CCC1(c2cccc(I)c2)Oc2ccccc2-n2cccc2C1=O		RT-L100I	nucleotide incorporation / radiometric	>10 µM
COc1cc(C)nc(N2C(=O)CSC2c2c(Cl)cccc2Cl)n1			nucleotide incorporation / radiometric	0.97 µM
CCC1(c2ccc(COc3ccccc3)cc2)Oc2ccccc2-n2cccc2C1=O		RT-Y188L	nucleotide incorporation / radiometric	2.3 µM
CC(C)=CCC/C(C)=C/CC/C(C)=C/CC/C=C(\C)CC[C@@H]1C(C)=CC[C@H](O)C1(C)C			nucleotide incorporation	>47 µM
Fc1cccc(F)c1C1SCc2nc3ccccc3n21			nucleotide incorporation / radiometric	14.6 µM
C=C(C)[C@@H]1CC=C2C(=CC[C@]3(C)[C@@H]([C@@H](CCC=C(C)C)C(=O)O)[C@H](O)C[C@@]23C)[C@@]1(C)CCC(=O)O			nucleotide incorporation	>45 µM
Cc1cn([C@@H]2O[C@H](CO[Si](C)(C)C(C)(C)C)[C@@]3(OS(=O)(=O)C=C3N)[C@H]2O[Si](C)(C)C(C)(C)C)c(=O)[nH]c1=O	WT		nucleotide incorporation / radiometric	1.6 µM
COc1ccc(Sc2nc(Cc3c(Cl)cccc3Cl)c(C)c(=O)[nH]2)cn1		RT-K103N		>400 µM
CC(C)=CCC[C@H](C)C1=C2CC[C@@H]3[C@@]4(C)CC[C@H](O)C(C)(C)[C@@H]4CC[C@@]3(C)[C@]2(C)CC1			nucleotide incorporation	3.5 µM
CCC1(c2ccc(I)cc2)Oc2ccccc2-n2cccc2C1=O		RT-V106A	nucleotide incorporation / radiometric	17.3 µM
C=C(C)[C@@H]1CC[C@]2(C(=O)OC)CC[C@]3(C)[C@H](CC[C@@H]4[C@@]5(C)CC[C@H](O)C(C)(C)[C@@H]5CC[C@]43C)[C@@H]12			nucleotide incorporation	11 µM
CC(C)=CCC[C@]1(C)C=Cc2c(O)c3c(c(CC=C(C)C)c2O1)O[C@@]12C(=C[C@H]4CC1C(C)(C)O[C@]2(C/C=C(/C)C(=O)O)C4=O)C3=O			nucleotide incorporation / radiometric	15 µg/mL
Cc1c(Cc2c(F)cccc2F)nc(Sc2ccc(F)cc2F)[nH]c1=O		Y181I		>400 µM
CC[C@H]1C(=O)Nc2ccc(F)cc2N1C(=O)OC(C)C	WT		nucleotide incorporation / radiometric	0.011 µM
O=P(O)(O)OP(=O)(O)O				>400 µM
CC(C)=CCc1c(O)cc(O)c2c1O[C@@]13C(=C[C@H]4CC1C(C)(C)O[C@]3(CC=C(C)C)C4=O)C2=O			nucleotide incorporation / radiometric	621 µg/mL
CCOc1cccc(C2(CC)Oc3ccccc3-n3cccc3C2=O)c1	WT		nucleotide incorporation / radiometric	0.76 µM
C=C(C)[C@@H]1CC[C@@]2(C)[C@H]1[C@H]1CC[C@@H]3[C@@]4(C)CC[C@H](O)C(C)(C)[C@@H]4CC[C@@]3(C)[C@]1(C)C[C@@H]2O			nucleotide incorporation	5.4 µM
Cc1ccnc(N2C(=O)CSC2c2c(F)cccc2Cl)n1			nucleotide incorporation / radiometric	1.79 µM
Cc1occc1C(=S)Nc1ccc(Cl)c(/C=N/OC(C)(C)C)c1				0.1 µg/mL
CC1(C)[C@@H](O)CC[C@]2(C)C3=C(CC[C@@H]12)[C@@]1(C)CC[C@@]2(C)CC[C@@](C)(C(=O)O)C[C@H]2[C@]1(C)CC3			nucleotide incorporation	5.3 µM
COc1ccc(Sc2nc(Cc3c(Cl)cccc3Cl)c(C)c(=O)[nH]2)cc1	WT			>400 µM
CC1(C)CC[C@]2(C)[C@@H](O)C[C@]3(C)C(=CCC4[C@@]5(C)CC[C@H](O)C(C)(C)[C@@H]5CC[C@]43C)[C@@H]2C1			nucleotide incorporation	23 µM
CC(C)=CCC/C(C)=C/C[C@]12C=C3C(=O)c4c(O)cc(O)c(CC=C(C)C)c4O[C@]34C(C1)C(C)(C)O[C@]4(CC=C(C)C)C2=O			nucleotide incorporation / radiometric	190 µg/mL
Nc1nc2c(ncn2[C@H]2CC[C@@H](COP(=O)(O)OP(=O)(O)OP(=O)(O)O)O2)c(=O)[nH]1	WT		nucleotide incorporation / radiometric	0.05 µM
CCOC(=O)c1c[nH]cc1S(=O)(=O)c1cc(Cl)ccc1N			nucleotide incorporation / radiometric	7.8–10.4 µM
COc1ccc(Sc2nc(Cc3c(F)cccc3F)c(C)c(=O)[nH]2)cc1		RT-K103N		>400 µM
O=C(O)C(=NNc1ccc(Cl)cc1)C(=O)O			radiometric	4.5 µM
CC(C)=CCn1cc2c(c1)S(=O)(=O)c1cc(Cl)ccc1NC2=O			nucleotide incorporation / radiometric	1.8–2.4 µM

For reference, 3 entries again:

SMILES,strain or isolate,mutations,method,value
Cc1occc1C(=S)Nc1ccc(Cl)c(/C=N/OC(C)(C)C)c1,,,,0.1 µg/mL
CC1(C)[C@@H](O)CC[C@]2(C)C3=C(CC[C@@H]12)[C@@]1(C)CC[C@@]2(C)CC[C@@](C)(C(=O)O)C[C@H]2[C@]1(C)CC3,,,nucleotide incorporation,5.3 µM
Fc1cccc(F)c1C1SCc2nc3ccccc3n21,,,nucleotide incorporation / radiometric,14.6 µM

a–b is a range or a potency band. Lines come from different laboratories, so protocols vary. ICn is the concentration giving n% inhibition.